The subject of this data set is DENV-2 16681 strain. The data set is described as follows: DENV-2 antiviral assay (eGFP fluorescence). The conditions noted are these: SI=CC50/EC50, DENV-2 antiviral assay. The data set is classed as cell-based, Dengue virus. On the procedure: The antiviral activity of all the compounds of the invention was tested against the DENV-2 16681 strain which was labeled with enhanced green fluorescent protein (eGPF). The culture medium consists of minimal essential medium supplemented with 2% of heat-inactivated fetal calf serum, 0.04% gentamycin (50 mg/mL) and 2 mM of L-glutamine. Vero cells, obtained from ECACC, were suspended in culture medium and 25 μL was added to 384-well plates (2500 cells/well), which already contain the antiviral compounds. Typically, these plates contain a 5-fold serial dilution of 9 dilution steps of the test compound at 200 times the final concentration in 100% DMSO (200 nL). […] Finally, each plate contains wells which are assigned as virus controls (containing cells and virus in the absence of compound), cell controls (containing cells in the absence of virus and compound) and medium controls (containing medium in the absence of cells, virus and compounds). To the wells assigned as medium control, 25 μL of culture medium was added instead of Vero cells. Once the cells were added to the plates, the plates were incubated for 30 minutes at room temperature to allow the cells to distribute evenly within the wells. Next, the plates were incubated in a fully humidified incubator (37° C., 5% CO2) until the next day. Then, DENV-2 strain 16681, labeled with eGFP, was added at a multiplicity of infection (MOI) of 0.5. Therefore, 15 μL of virus suspension was added to all the wells containing test compound and to the wells assigned as virus control. In parallel, 15 μL of culture medium was added to the medium and cell controls. Next, the plates were incubated for 3 days in a fully humidified incubator (37° C., 5% CO2). At the day of the read out, the eGFP fluorescence was measured using an automated fluorescence microscope at 488 nm (blue laser). Using an in-house LIMS system, inhibition dose response curves for each compound were calculated and the half maximal effective concentration (EC50) was determined. Therefore, the percent inhibition (I) for every test concentration is calculated using the following formula: I=100*(ST-SCC)/(SVC-SCC); ST, SCC and SVC are the amount of eGFP signal in the test compound, cell control and virus control wells, respectively. The EC50, represents the concentration of a compound at which the virus replication is inhibited with 50%, as measured by a 50% reduction of the eGFP fluorescent intensity compared to the virus control. The EC50 is calculated using linear interpolation (Table 1).
Turning to `COc1cc(NC(C(=O)N2CCc3cc(OC)c(C(F)(F)F)cc32)c2ccc(Cl)cc2)cc(OCCCC(=O)O)c1` (racemic) [Compound 5, 4-(3-((1-(4-chlorophenyl)-2-(5-methoxy-6-(trifluoromethyl)indolin-1-yl)-2-oxoethyl)amino)-5-methoxyphenoxy)butanoic Acid], the SI is listed as 26000. Turning to `COc1cc(NC(C(=O)N2CCc3ccc(OC(F)(F)F)cc32)c2ccc(Cl)cc2)cc(OCCCC(=O)O)c1` (racemic) [Compound 4, 4-(3-((1-(4-chlorophenyl)-2-oxo-2-(6-(trifluoromethoxy)indolin-1-yl)ethyl)amino)-5-methoxyphenoxy)butanoic acid], the SI is recorded as more than 46100. The figure for `COc1cc(NC(C(=O)N2CCc3cc(OC)c(OC(F)(F)F)cc32)c2ccc(Cl)cc2)cc(OCCCC(=O)O)c1` (racemic) [Compound 12, 4-(3-((1-(4-chlorophenyl)-2-(5-methoxy-6-(trifluoro-methoxy)indolin-1-yl)-2-oxoethyl)amino)-5-methoxyphenoxy)butanoic acid] is 17700. Regarding `COc1cc(NC(C(=O)N2CCc3cc(OC)c(OC(F)(F)F)cc32)c2ccc(Cl)cc2)cc(OCCCC(=O)O)c1` (single isomer, unassigned) [Compound 12A], the SI is 32. As for `COc1cc(NC(C(=O)N2CCc3ccc(C(F)(F)F)cc32)c2ccc(Cl)cc2)cc(OCCCC(=O)O)c1` (racemic) [Compound 3, 4-(3-((1-(4-chlorophenyl)-2-oxo-2-(6-(trifluoromethyl)indolin-1-yl)ethyl)amino)-5-methoxyphenoxy)butanoic acid], the SI stood at 20300. For `COc1cc(NC(C(=O)N2CCc3ccc(OC(F)(F)F)cc32)c2ccc(Cl)cc2OC)cc(OCCCC(=O)O)c1` (racemic) [Compound 8, 4-(3-((1-(4-chloro-2-methoxyphenyl)-2-oxo-2-(6-(trifluoro-methoxy)indolin-1-yl)ethyl)amino)-5-methoxyphenoxy)butanoic acid], the SI is on record as 112292.

Turning to `COc1cc(NC(C(=O)N2CCc3ccc(OC(F)(F)F)cc32)c2ccc(F)cc2)cc(OCCCC(=O)O)c1` (single isomer, unassigned) [Compound 2A], the SI was 248. For the compound `COc1cc(NC(C(=O)N2CCc3ccc(OC(F)(F)F)cc32)c2ccc(Cl)cc2OC)cc(OCCCC(=O)O)c1` (single isomer, unassigned) [Compound 8A], the SI was 43.

`COc1cc(NC(C(=O)N2CCc3cc(OC)c(C(F)(F)F)cc32)c2ccc(Cl)cc2OC)cc(OCCCC(=O)O)c1` (single isomer, unassigned) [Compound 7A]: the SI was 508. In the case of `COc1cc(NC(C(=O)N2CCc3ccc(OC(F)(F)F)cc32)c2ccc(Cl)cc2F)cc(OCCCC(=O)O)c1` (single isomer, unassigned) [Compound 10B] it was 1620; in that of `COc1cc(NC(C(=O)N2CCc3cc(OC)c(C(F)(F)F)cc32)c2ccc(Cl)cc2F)cc(OCCCC(=O)O)c1` (racemic) [Compound 11, 4-(3-((1-(4-chloro-2-fluorophenyl)-2-(5-methoxy-6-(trifluoromethyl)indolin-1-yl)-2-oxoethyl)amino)-5-methoxyphenoxy)butanoic acid], 20600. In the case of `COc1cc(NC(C(=O)N2CCc3ccc(C(F)(F)F)cc32)c2ccc(Cl)cc2OC)cc(OCCCC(=O)O)c1` (single isomer, unassigned) [Compound 6A], the SI was found to be 527. The compound `COc1cc(NC(C(=O)N2CCc3ccc(C(F)(F)F)cc32)c2ccc(Cl)cc2F)cc(OCCCC(=O)O)c1` (racemic) [Compound 9, 4-(3-((1-(4-chloro-2-fluorophenyl)-2-oxo-2-(6-(trifluoromethyl)indolin-1-yl)ethyl)amino)-5-methoxy-phenoxy)butanoic acid] gave an SI of 12700. In the case of `COc1cc(NC(C(=O)N2CCc3ccc(OC(F)(F)F)cc32)c2ccc(Cl)cc2)cc(OCCCC(=O)O)c1` (single isomer, unassigned) [Compound 4A], the SI worked out at 345.

For the compound `COc1cc(NC(C(=O)N2CCc3ccc(C(F)(F)F)cc32)c2ccc(Cl)cc2F)cc(OCCCC(=O)O)c1` (single isomer, unassigned) [Compound 9A], the SI turned out to be 392. `COc1cc(NC(C(=O)N2CCc3cc(OC)c(C(F)(F)F)cc32)c2ccc(Cl)cc2F)cc(OCCCC(=O)O)c1` (single isomer, unassigned) [Compound 11A] had an SI of 837.

`COc1cc(NC(C(=O)N2CCc3ccc(OC(F)(F)F)cc32)c2ccc(F)cc2)cc(OCCCC(=O)O)c1` (racemic) [Compound 2, 4-(3-((1-(4-fluorophenyl)-2-oxo-2-(6-(trifluoromethoxy)indolin-1-yl)ethyl)amino)-5-methoxyphenoxy)butanoic acid] registered an SI of 22200.

`COc1cc(NC(C(=O)N2CCc3ccc(C(F)(F)F)cc32)c2ccc(Cl)cc2OC)cc(OCCCC(=O)O)c1` (racemic) [Compound 6, 4-(3-((1-(4-chloro-2-methoxyphenyl)-2-oxo-2-(6-(trifluoro-methyl)indolin-1-yl)ethyl)amino)-5-methoxyphenoxy)butanoic acid] showed an SI of 32100. `COc1cc(NC(C(=O)N2CCc3ccc(C(F)(F)F)cc32)c2ccc(Cl)cc2)cc(OCCCC(=O)O)c1` (single isomer, unassigned) [Compound 3A] showed an SI of 3200. The figure for `COc1cc(NC(C(=O)N2CCc3ccc(C(F)(F)F)cc32)c2ccc(F)cc2)cc(OCCCC(=O)O)c1` (single isomer, unassigned) [Compound 1A] is more than 76; for `COc1cc(NC(C(=O)N2CCc3ccc(OC(F)(F)F)cc32)c2ccc(Cl)cc2F)cc(OCCCC(=O)O)c1` (racemic) [Compound 10, 4-(3-((1-(4-chloro-2-fluorophenyl)-2-oxo-2-(6-(trifluoromethoxy)indolin-1-yl)ethyl)amino)-5-methoxy-phenoxy)butanoic acid] it is 44300; for `COc1cc(NC(C(=O)N2CCc3cc(OC)c(C(F)(F)F)cc32)c2ccc(Cl)cc2OC)cc(OCCCC(=O)O)c1` (racemic) [Compound 7, 4-(3-((1-(4-chloro-2-methoxyphenyl)-2-(5-methoxy-6-(trifluoromethyl)indolin-1-yl)-2-oxoethyl)amino)-5-methoxyphenoxy)butanoic acid] it is 24500. The figure for `COc1cc(NC(C(=O)N2CCc3ccc(C(F)(F)F)cc32)c2ccc(F)cc2)cc(OCCCC(=O)O)c1` (racemic) [Compound 1, 4-(3-((1-(4-fluorophenyl)-2-oxo-2-(6-(trifluoromethyl)-indolin-1-yl)ethyl)amino)-5-methoxyphenoxy)butanoic acid] is more than 12022; for `COc1cc(NC(C(=O)N2CCc3cc(OC)c(C(F)(F)F)cc32)c2ccc(Cl)cc2)cc(OCCCC(=O)O)c1` (single isomer, unassigned) [Compound 5A] it is 625.
